Target: VP4 of rotavirus strain WI61 (G9P[8]) (human rotavirus)
Test: cell-based or functional assay

B1: mAb #47 (antibody, V domains shown)
VH: QVQLQESGPGLVKPSETLSLTCSVSGGSISVYYWNWIRQSPGKGLEWIASMYYTGITNYNPSLKSRVTMSVDMSKNQFSLKLSSVTAADTAVYYCARTMGIDQNNRGWPPAGYYFGMDVWGQGTTVTVSS
VL: DIVMTQSPLSLPVTPGEPASISCRSSQSLLHSNGNNYLDWYLQKPGQSPQLLIYLGSNRASGVPDRFSGSGSGTDFTLKISRVEAEDVGIYYCMQALEASLTFGGGTKVEIK
**Q.** B1 was tested. Which minimum neutralizing concentration did it give?
**A.** 78.1 ng/mL

Source: patent US20180155411A1
